Results of unrelated studies side by side (data: NIAID ChemDB).

Shared fields: whole-cell or culture tests; species: HIV-1; method: p24; measure: EC90

Lines come from different laboratories, so protocols vary. ECn is the concentration giving n% inhibition of infection, replication or growth.

{"smiles": "CCCCN1C(=O)C(CC2CCCCC2)NC(=O)C12CCN(Cc1ccc3c(c1)OCCO3)CC2", "strain or isolate": "BAL R5", "cell line": "PBMC", "result": "0.709 µM"}
{"smiles": "CCC[C@@]1(CCc2ccccc2)CC(O)=C([C@H](CC)c2cccc(NS(=O)(=O)c3ccc(C(F)(F)F)cn3)c2)C(=O)O1", "strain or isolate": "472 clinical isolates AZT-resistant", "cell line": "PBMC", "result": "0.03 µM"}
{"smiles": "CC(C)c1nc(CN(C)C(=O)N[C@H](C(=O)N[C@@H](Cc2ccccc2)C[C@H](O)[C@H](Cc2ccccc2)NC(=O)OCc2cncs2)C(C)C)cs1", "strain or isolate": "NL4-3", "changes": "PR-N88D", "cell line": "MT-4", "result": "0.01 µM"}
{"smiles": "Cn1cc(C(=O)N[C@@H](CC(N)=O)C(=O)N[C@@H](Cc2ccccc2)[C@H](O)C(=O)N2C[C@@H](Cl)C[C@H]2C(=O)NC(C)(C)C)c2ccccc21", "strain or isolate": "IIIB", "cell line": "MOLT-4/HIV-1(IIIB) + MOLT-4", "result": "2.1 µM"}
{"smiles": "O=c1[nH]cnc2c1ncn2[C@H]1CC[C@@H](CO)O1", "strain or isolate": "RF", "cell line": "PBMC", "result": "3.9 µM"}
{"smiles": "CC(C)Nc1cccnc1N1CCN(C(=O)c2cc3cc(NS(C)(=O)=O)ccc3[nH]2)CC1", "strain or isolate": "Isolate 472", "cell line": "PBMC", "result": ">10 µM"}
{"smiles": "CC(C)(C)NC(=O)[C@@H]1C[C@H](Cl)CN1C(=O)[C@@H](O)[C@H](Cc1ccccc1)NC(=O)[C@H](CC(N)=O)NC(=O)OCc1ccccc1", "strain or isolate": "IIIB", "cell line": "CEM", "result": "0.5 µM"}
{"smiles": "Cc1cn([C@H]2C[C@H](N=[N+]=[N-])[C@@H](CO)O2)c(=O)[nH]c1=O", "strain or isolate": "IIIB", "cell line": "H9", "result": "1.575 µM"}
{"smiles": "Cc1cn([C@H]2C[C@H](N=[N+]=[N-])[C@@H](CO)O2)c(=O)[nH]c1=O", "strain or isolate": "XM-Q151M", "changes": "RT-A62V V75I F77C F116Y Q151M", "cell line": "PBMC", "result": ">375 µM"}
{"smiles": "CC(C)[C@H](NC(=O)c1ccc2ccccc2n1)C(=O)N[C@@H](Cc1ccccc1)[C@H](O)C(=O)N1[C@H](C(=O)NC(C)(C)C)C[C@@H]2CCCC[C@@H]21", "strain or isolate": "RF", "cell line": "MT-2", "result": "0.53 µM"}
{"smiles": "Nc1ccn([C@H]2CC[C@@H](CO)O2)c(=O)n1", "strain or isolate": "RF", "cell line": "PBMC", "result": "0.09 µM"}
{"smiles": "Cc1cn([C@H]2C[C@H](N=[N+]=[N-])[C@@H](CO)O2)c(=O)[nH]c1=O", "strain or isolate": "Isolate 461", "cell line": "PBMC", "result": "0.3 µM"}
{"smiles": "CC(C)CN(C[C@@H](O)[C@H](Cc1ccccc1)NC(=O)[C@@H](NC(=O)CNCc1cccc(F)c1)C(C)(C)C)S(=O)(=O)c1cccc(N)c1", "strain or isolate": "NL4-3", "cell line": "PBMC", "result": "0.0065 µM"}
{"smiles": "CC(C)(C)NC(=O)[C@@H]1C[C@@H]2CCCC[C@@H]2CN1C[C@@H](O)[C@H](Cc1ccccc1)NC(=O)[C@H](CC(N)=O)NC(=O)c1ccc2ccccc2n1", "strain or isolate": "BAL R5", "cell line": "PBMC", "result": "0.06 µM"}
{"smiles": "Cc1cn([C@H]2C[C@H](N=[N+]=[N-])[C@@H](CO)O2)c(=O)[nH]c1=O", "strain or isolate": "410 clinical isolates AZT-resistant", "cell line": "PBMC", "result": "6.6 µM"}
{"smiles": "COc1cccc2cc(C(=O)N[C@@H](CC(N)=O)C(=O)N[C@@H](Cc3ccccc3)[C@H](O)C(=O)N3C[C@@H](Cl)C[C@H]3C(=O)NC(C)(C)C)oc12", "strain or isolate": "IIIB", "cell line": "CEM", "result": "0.06 µM"}
{"smiles": "Cc1cccc(C)c1OCC(=O)N[C@@H](Cc1ccccc1)[C@@H](O)C[C@H](Cc1ccccc1)NC(=O)[C@H](C(C)C)N1CCCNC1=O", "strain or isolate": "HXB2", "changes": "PR-M46I I47V I50V", "cell line": "PBMC", "result": "0.255 µM"}
{"smiles": "CC(C)[C@H](NC(=O)N(C)Cc1ccccn1)C(=O)N[C@@H](Cc1ccccc1)[C@H](O)C(=O)N1[C@H](C(=O)NC(C)(C)C)C[C@@H]2CCCC[C@@H]21", "strain or isolate": "RF", "cell line": "MT-2", "result": "2.2 µM"}
{"smiles": "Cc1cn([C@H]2C[C@H](N=[N+]=[N-])[C@@H](CO)O2)c(=O)[nH]c1=O", "strain or isolate": "IIIB", "cell line": "PBMC", "result": "0.093 µM"}
{"smiles": "CC(=O)c1ccccc1NC(C(N)=O)c1c(Cl)cccc1Cl", "strain or isolate": "R88703-resistant IIIB (RT Y181C)", "changes": "RT-Y181C", "cell line": "MT-4", "result": ">10 µM"}
{"smiles": "CC[C@H](C)[C@H](NC(=O)[C@H](C(C)C)[C@@H](O)[C@H](O)[C@H](CC1CCCCC1)NC(=O)[C@H](Cc1cnc[nH]1)NC(=O)COc1cccc2ccccc12)C(=O)NCc1ccccn1", "strain or isolate": "JR-CSF", "cell line": "PBMC", "result": "0.4 µM"}
{"smiles": "CC(C)(C)NC(=O)[C@@H]1C[C@H](Cl)CN1C(=O)[C@@H](O)[C@H](Cc1ccccc1)NC(=O)[C@H](CC(N)=O)NC(=O)c1cnc2ccccc2n1", "strain or isolate": "IIIB", "cell line": "CEM", "result": "0.12 µM"}
{"smiles": "Cc1c(O)cccc1C(=O)N[C@@H](CSc1ccccc1)[C@H](O)CN1C[C@H]2CCCC[C@H]2C[C@H]1C(=O)NC(C)(C)C", "strain or isolate": "IIIB", "cell line": "PBMC", "result": "0.084 µM"}
{"smiles": "CCO/N=C(\\c1ccc(Br)cc1)C1CCN(C2(C)CCN(C(=O)c3c(C)cc[n+]([O-])c3C)CC2)CC1", "strain or isolate": "BAL R5", "cell line": "PBMC", "result": "0.079 µM"}
{"smiles": "CC(C)[C@H](NC(=O)c1ccc2ccccc2n1)C(=O)N[C@@H](Cc1ccccc1)[C@H](O)C(=O)N1CCC[C@H]1C(=O)NC(C)(C)C", "strain or isolate": "RF", "cell line": "MT-2", "result": "0.62 µM"}
{"smiles": "CCCCN1C(=O)[C@@H]([C@H](O)C2CCCCC2)NC(=O)C12CCN(Cc1ccc(Oc3ccc(C(=O)O)cc3)cc1)CC2", "strain or isolate": "JR-FL R5", "cell line": "PBMC", "result": "0.004 µM"}
{"smiles": "O=c1[nH]cnc2c1ncn2[C@H]1CC[C@@H](CO)O1", "strain or isolate": "RT-M184V XM-M184V", "changes": "RT-M184V", "cell line": "PBMC", "result": "25 µM"}
{"smiles": "CC(C)(C)NC(=O)[C@@H]1[C@@H]2CCCC[C@@H]2CN1C(=O)[C@@H](O)[C@H](Cc1ccccc1)NC(=O)[C@H](CC(N)=O)NC(=O)c1ccc2ccccc2c1", "strain or isolate": "RF", "cell line": "MT-2", "result": "0.153 µM"}